Measured values reported in US20250312345A1, “NON-COVALENT INHIBITORS OF THE MAIN PROTEASE OF SARS-COV-2 AND METHODS OF USE” (YALE UNIVERSITY, priority 2022, published 2025).

Test system: SARS-CoV-2 replicon
Assay: microbe, parasite or virus in culture
Assay type: cell-based
Conditions: Severe acute respiratory syndrome coronavirus 2, BHK; Table 3

Compound | EC50 [nM]
Cn1cc(-c2cc(-c3cc(Cl)cc(OCCC(F)(F)F)c3)c(=O)n(-c3cccnc3)c2)c(=O)[nH]c1=O [compound 60] | 820 ± 280
Cn1cc(-c2cc(-c3cc(Cl)cc(OCc4scnc4C(F)(F)F)c3)c(=O)n(-c3cccnc3)c2)c(=O)[nH]c1=O [compound 64] | 1080
